Fold change is the IC50 on the isolate divided by the IC50 on a reference virus; 1 = unchanged, higher = more resistant. Changes are given against the subtype B consensus. No active / inactive call. The values were gathered from many studies (numbered anew) with different assays, which the source does not name. Most viruses are clinical isolates; some are laboratory strains or clones with known resistance changes. Isolates with mixed residues are left out; stretches that were not sequenced show no change. Round top values that many isolates share are read here as limits; other very high values and 0.1 may be limits too. For some assays here: The protease changes I3V and N37S, insertions and deletions cannot be read from the source.
Key:
zidovudine = compound: Cc1cn([C@H]2C[C@H](N=[N+]=[N-])[C@@H](CO)O2)c(=O)[nH]c1=O [zidovudine]; assay: fold change of IC50 against reference virus; higher = more resistant
Method: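 Cell-culture drug susceptibility tests of virus bearing the reverse transcriptase of each isolate, gathered from many studies.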

indinavir = compound: CC(C)(C)NC(=O)[C@@H]1CN(Cc2cccnc2)CCN1C[C@@H](O)C[C@@H](Cc1ccccc1)C(=O)N[C@H]1c2ccccc2C[C@H]1O [indinavir]; assay: fold change of IC50 against reference virus; higher = more resistant; Cell-culture drug susceptibility tests of virus bearing the protease of each isolate, gathered from many studies.
saquinavir = compound: CC(C)(C)NC(=O)[C@@H]1C[C@@H]2CCCC[C@@H]2CN1C[C@@H](O)[C@H](Cc1ccccc1)NC(=O)[C@H](CC(N)=O)NC(=O)c1ccc2ccccc2n1 [saquinavir]; assay: as above
ritonavir = compound: CC(C)c1nc(CN(C)C(=O)N[C@H](C(=O)N[C@@H](Cc2ccccc2)C[C@H](O)[C@H](Cc2ccccc2)NC(=O)OCc2cncs2)C(C)C)cs1 [ritonavir]; assay: as above
nelfinavir = compound: Cc1c(O)cccc1C(=O)N[C@@H](CSc1ccccc1)[C@H](O)CN1C[C@H]2CCCC[C@H]2C[C@H]1C(=O)NC(C)(C)C [nelfinavir]; assay: as above

Test System	fold change of IC50 against reference virus (zidovudine)	fold change of IC50 against reference virus (indinavir)	fold change of IC50 against reference virus (saquinavir)	fold change of IC50 against reference virus (ritonavir)	fold change of IC50 against reference virus (nelfinavir)
HIV-1 isolate 45 (reverse transcriptase changes: M41L K122E L210W F214L A272P K277R A376T A400T D460N S468T H483Y K512Q S519N, study 103)	5.2				
HIV-1 isolate 498 (reverse transcriptase changes: M41L K122E F214L T215Y A272P K277R A376T A400T D460N S468T H483Y K512Q S519N, study 103)	18				
HIV-1 isolate 1322 (reverse transcriptase changes: M41L D67N K70R K122E L210W F214L T215Y K219Q A272P K277R A376T A400T D460N S468T H483Y K512Q S519N, study 103)	340				
HIV-1 isolate 874 (reverse transcriptase changes: K122E L210W F214L T215Y A272P K277R A376T A400T D460N S468T H483Y K512Q S519N, study 103)	42				
HIV-1 isolate 910 (reverse transcriptase changes: M41L D67N K70R K122E S156A F214L T215Y A272P K277R M357T A376T A400T N447S D460N S468T S519N, study 103)	3				
HIV-1 isolate 1219 (reverse transcriptase changes: K122E F214L A272P K277R M357T A376T A400T N447S D460N S468T S519N, study 103)	1				
HIV-1 isolate 570 (protease changes: T12S I15V L19I M36I R41K H69K I93L, study 139)		1	1	1	1
HIV-1 isolate 638 (protease changes: D30N M36I I54V L63P A71V N88D L90M, study 66)		5.8	24	17	219
HIV-1 isolate 695 (protease changes: L10I I15V K20M E35D M36I I54V R57K I62V L63P A71V G73S V82A L90M, study 112)		48.9	42.1	122	80.7
HIV-1 isolate 739 (protease changes: E35D L63P I64V V77I I93L, study 54)		0.5	0.3	0.5	1.4
HIV-1 isolate 366 (protease changes: L10I M36I R41K I64V I93L, study 127)		0.7	1	0.9	1.3
HIV-1 isolate 1169 (protease changes: none, study 38)		1	1	1	1
HIV-1 isolate 1432 (protease changes: L63P K70R, study 54)		1.4	1.1	1.5	1.4
HIV-1 isolate 1628 (protease changes: D30N L63P V77I N88D L90M, study 66)		5.3	9.3	3.4	57
HIV-1 isolate 809 (protease changes: K14R I15V R41K L63I V77I, study 57)		1	2	1	1
HIV-1 isolate 54 (protease changes: L10F D30N L33F I54L L63P A71V V77I N88D L90M, study 66)		1.1	6.1	4.7	109
HIV-1 isolate 1363 (protease changes: E35D M36I L63P, study 89)		1	1	1	1
HIV-1 isolate 611 (protease changes: D30N R57G N88D, study 110)		0.5	0.5	0.4	7.1
HIV-1 isolate 893 (protease changes: I13V K20R M36I I62V L63P G73S L90M, study 57)		5	5	8	5
HIV-1 isolate 286 (protease changes: L10V M46I I62V L63P I64V L76V V77I I93L, study 119)		12.5	0.6	1.9	3
HIV-1 isolate 928 (protease changes: I62V L63P A71V L90M, study 57)		2	5	4	2
HIV-1 isolate 854 (protease changes: Q18R M36I Q58E L63T A71T, study 57)		1	1	1	1
HIV-1 isolate 24 (protease changes: T12S I15V L19I M36I R41K L63V H69K L89M I93L, study 139)		1	1	1	1
HIV-1 isolate 14 (protease changes: D30N M46I I64V A71V, study 89)		1	1	1	10
HIV-1 isolate 1461 (protease changes: V82A, study 38)		1	1	2	2

Test System	fold change of IC50 against reference virus (zidovudine)	fold change of IC50 against reference virus (indinavir)	fold change of IC50 against reference virus (saquinavir)	fold change of IC50 against reference virus (ritonavir)	fold change of IC50 against reference virus (nelfinavir)
HIV-1 isolate 1422 (protease changes: I13V E35D M36I I62V L63P I64L, study 89)		1	1	1	1
HIV-1 isolate 1514 (protease changes: I13V I15N K20I M36I R41K H69K L89M, study 114)		0.5	0.7	0.4	0.6
HIV-1 isolate 1151 (protease changes: L10R T12I L24I N37D M46I L63P A71V V82T I84V, study 68)		11.4	3.2	1.4	4.5
HIV-1 isolate 714 (protease changes: M36I N37D L63P A71V I84V N88D L90M, study 57)		1	3	1	1
HIV-1 isolate 79 (protease changes: L10I K20R E35D M36I I54V I62V L63S I64M A71V I84V L89I L90M Q92K, study 15)		12	186	105	102
HIV-1 isolate 781 (protease changes: D30N L33F L63P A71T N88D L90M, study 66)		3.5	5.2	3.3	74
HIV-1 isolate 871 (protease changes: L10I I15V V32I P39S R41K M46L L63P K70R A71V V82A, study 127)		4.3	0.7	16.5	4.5
HIV-1 isolate 422 (protease changes: I13V L63P, study 112)		1	1.1	1.8	2.2
HIV-1 isolate 705 (protease changes: L10I L24I K43T M46I I54V K55R L63P I64V V82A, study 119)		35.9	3.6	127	34.3
HIV-1 isolate 1333 (protease changes: L10I K20I E35D M36I R41K M46I I62V L63P A71I I72T G73S I84V L90M I93L, study 123)		38	89	30	68
HIV-1 isolate 187 (protease changes: L10I L63P A71T V77I I85V L90M, study 54)		1.2	1.3	3	2.5
HIV-1 isolate 877 (protease changes: I13V K20I E35D M36I I54V L63P I66F A71V V82T, study 120)		25.3	3.2	27.8	27.8
HIV-1 isolate 1592 (protease changes: none, study 139)		1	1	1	1
HIV-1 isolate 1243 (protease changes: L10R M46I R57G L63P V82T I84V, study 110)		3.9	1.7	22.4	3.6
HIV-1 isolate 1298 (protease changes: E35D, study 54)		0.5	0.7	0.8	0.8
HIV-1 isolate 1316 (protease changes: L10F V11I K20I E35D M36I R41K M46I I54M I62V L63P A71I I84V I85V L90M I93L, study 123)		22	29	55	38
HIV-1 isolate 1500 (protease changes: V82T, study 38)		1	1	3	3
HIV-1 isolate 901 (protease changes: L5F T12I I13V N37D L63P A71T V77I L90M, study 57)		2	2	11	3
HIV-1 isolate 1312 (protease changes: L10V I15V K20R E21K M36I N37D R41K D60N Q61E I62V C67E H69K I72V L89M I93L, study 114)		0.5	0.6	0.4	0.5
HIV-1 isolate 355 (protease changes: L10F D30N I54L L63P A71V V77I N88D L90M, study 66)		3.9	38.1	5.7	171
HIV-1 isolate 541 (protease changes: L10I I64V V77I N88S, study 107)		2.5	2.4	0.6	14.6
HIV-1 isolate 841 (protease changes: D30N N88D, study 61)		0.1	0.3	0.2	6
HIV-1 isolate 1253 (protease changes: N37C L63Q I64V, study 15)		0.7	0.7	0.6	0.7
HIV-1 isolate 938 (protease changes: D60E L63A, study 15)		1	1	0.9	1.1
HIV-1 isolate 174 (protease changes: I13V D30N E35D M36L I62V L63Q I64V T74S N88D, study 127)		1	1.5	1.4	47
